Measurements from ChEMBL document CHEMBL6134870 (J Med Chem, 2025).

The chains behind the UniProt entries cited, without tags or fusion partners. Residues count along the entry.
UniProt P0DPI0, 2-448 limits assumed: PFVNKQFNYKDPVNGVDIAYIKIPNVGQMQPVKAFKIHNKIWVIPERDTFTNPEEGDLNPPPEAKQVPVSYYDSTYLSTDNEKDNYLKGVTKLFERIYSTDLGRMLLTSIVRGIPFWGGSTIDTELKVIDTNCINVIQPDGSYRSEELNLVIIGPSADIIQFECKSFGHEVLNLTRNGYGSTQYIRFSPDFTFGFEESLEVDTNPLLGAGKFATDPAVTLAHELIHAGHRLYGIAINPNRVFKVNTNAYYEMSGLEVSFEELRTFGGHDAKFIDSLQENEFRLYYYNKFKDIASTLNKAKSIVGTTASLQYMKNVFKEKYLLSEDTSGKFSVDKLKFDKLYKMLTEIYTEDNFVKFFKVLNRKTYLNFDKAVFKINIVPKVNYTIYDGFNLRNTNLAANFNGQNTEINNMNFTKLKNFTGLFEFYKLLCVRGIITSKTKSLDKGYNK

Columns and labels:
[1] = target: T1, Botulinum neurotoxin type A (Clostridium botulinum, UniProt P0DPI0); experiment: Inhibition of Botulinum neurotoxins A (1-448) light chain using 66-mer peptide substrate measured after 10 mins by 66-mer LC-MS based assay
[2] = target: T1, Botulinum neurotoxin type A; experiment: Inhibition of Botulinum neurotoxins A light chain using SNAPtideflP6 as substrate by SNAPtide assay
[3] = target: T1, Botulinum neurotoxin type A; experiment: Inhibition of Botulinum neurotoxins A (1-425) light chain using 66-mer peptide substrate measured after 10 mins by 66-mer LC-MS based assay
[4] = target: T1, Botulinum neurotoxin type A; experiment: Inhibition of Botulinum neurotoxins A light chain in cells by Western blotting analysis
[5] = target: T1, Botulinum neurotoxin type A; experiment: Uncompetitive inhibition of Botulinum neurotoxins A light chain assessed as inhibition constant using SNAPtide as substrate incubated for 8 hrs by LC-MS analysis
[6] = target: T1, Botulinum neurotoxin type A; experiment: Competitive inhibition of Botulinum neurotoxins A light chain assessed as inhibition constant using SNAPtide as substrate incubated for 10 mins by 66-mer LC-MS analysis

O=C(c1ccc2c(c1)CC(=S)N2)N1CCc2ccccc21
IC50 [1]: Not_determined

O=C(Nc1ccc2c(c1)NC(=S)C2)c1ccccc1
IC50 [1]: Not_determined
IC50 [2]: 11.3 µM
IC50 [3]: 1.2 µM

CC1(CCC(=O)Nc2ccc3c(c2)NC(=S)C3)N=N1
IC50 [2]: 14 µM

C=C=CC(=O)NCCCc1ccn2c(=O)cc(CNCc3ccc(-c4ccccc4)cc3)nc2c1O
IC50 [4]: 20.9 µM

O=c1ccnc2c(O)cccn12
IC50 [1]: Not_determined

S=C1Cc2cc(Br)ccc2N1
Ki [5]: 2.9 µM
Ki [6]: 1.8 µM

O=C(Nc1ccc2c(c1)CC(=S)N2)c1ccc(Cl)cc1Cl
IC50 [1]: Not_determined

O=C(CCc1ccccc1)Nc1ccc2c(c1)NC(=S)C2
IC50 [2]: 15.5 µM

CSc1cc2ccccc2[nH]1
IC50 [2]: Not_active

N#C[Se]CCCCc1ccn2c(=O)cc(CNCc3ccc(-c4ccccc4)cc3)nc2c1O
IC50 [4]: 8.5 µM

S=C1Cc2cc(Br)c(Br)cc2N1
IC50 [4]: 32 µM

CC(=O)Sc1cc2cc(Br)c(Br)cc2[nH]1
IC50 [4]: 30.3 µM

O=C(Nc1cccc2ccccc12)c1ccc2c(c1)CC(=S)N2
IC50 [1]: Not_determined

O=C(Nc1cc2c(cc1Cl)NC(=S)C2)c1ccccc1
IC50 [1]: Not_determined
